Values from PubChem BioAssay AID504761 (Drosophila RNAi Screening Center, 2011).
In all, the deposit lists about 22,000 reagents; shown is a random part of those with a known target gene and a result. Of all reagents, 116 (0.52%) were called active. 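Calls depend on retest data that are not deposited; infection was ranked per plate without normalising between plates; the unit of the infection score is not given.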 Raw values are not corrected between plates. Entries without a mark were called inactive. Names joined by + are all predicted targets of the reagent. Reagent sequences are not shown. The record does not give: the amount of reagent, the time to read-out.

- Purpose: 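Insect host genes that dengue virus relies on to spread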 (primary screen)
- System: D.Mel-2 cells from Drosophila
- Reagent: long dsRNA against Drosophila genes
- Treatment: infection with dengue virus type 2; dose and infection time not stated
- Read-out: 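Per well on two replicate plates, imaging gave the percent of cells positive for viral envelope protein, ranked by infection, and a nuclear count of cells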
- Direction: infection score: higher = more virus-infected cells; cell count: higher = more cells in the well
- Rule for the call: 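Low infection ranks in the two replicates (chance level up to 0.065) followed by a retest with a 1.5-fold or larger significant decrease, p below 0.05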
- Calls: active = confirmed: knock-down lowers infection; inactive = not picked or not confirmed

no.	target	amplicon	infection score, replicate 1	infection score, replicate 2	cell count, replicate 1	cell count, replicate 2
1	metro (menage a trois)	DRSC06341	12.8	5.74	5509	6476
2	metro (menage a trois)	DRSC06725	14.2	8.22	6603	7055
3	metro (menage a trois)	DRSC27336	6.91	22.9	6568	6143
4	CG10222	DRSC09714	0.63	1.2	6154	6234
5	CG10222	DRSC28067	7.85	11.2	6189	5453
6	Syx16 (Syntaxin 16)	DRSC20507	0.74	1.83	6934	6543
7	Syx16 (Syntaxin 16)	DRSC27163	9.31	15.3	6971	6463
8	in (inturned)	DRSC11888	1.4	3.79	5851	5778
9	fbp (fructose-1,6-bisphosphatase)	DRSC02077	7.47	5.24	6762	2845
10	Mitf	DRSC17212	5.85	0.48	4734	415
11	Mitf	DRSC21056	5.17	5.62	5955	6856
12	Cpr47Ea (Cuticular protein 47Ea)	DRSC07333	4.33	11.1	6375	5777
13	loco (locomotion defects)	DRSC15202	2.47	4.87	5988	5813
14	loco (locomotion defects)	DRSC16989	3.75	3.06	6502	6820
15	loco (locomotion defects)	DRSC27695	14.6	11.9	6983	6812
16	Patr-1 (Protein associated with topo II related - 1)	DRSC14159	2.78	4.31	6044	6262
17	Patr-1 (Protein associated with topo II related - 1)	DRSC26481	1.82	0.63	5985	6398
18	Exd2 (Exonuclease 3'-5' domain-containing 2)	DRSC16105	18.3	3.76	6260	6334
19	Exd2 (Exonuclease 3'-5' domain-containing 2)	DRSC25938	1.15 (active)	0.5	6444	6235
20	CG13806	DRSC08341	2.97	10.8	7074	6387
21	Vha16-4 + CG15614	DRSC07321	7.08	11.4	6457	6396
22	CG4702	DRSC15626	17.5	20	5139	5641
23	Dph1 (Diphthamide biosynthesis 1)	DRSC09851	19.9	15.3	6342	5215
24	foi (fear-of-intimacy)	DRSC10719	0.79	1.88	5189	5891
25	foi (fear-of-intimacy)	DRSC29596	2.26	0.85	574	468
26	CG10175	DRSC13628	2.32	1.78	5822	6062
27	CG10175	DRSC14200	3.96	9.11	6490	6453
28	CG10175	DRSC21981	2.21	15.9	6963	6068
29	CG14300	DRSC14779	14.6	2.92	2898	5097
30	CG18661	DRSC02690	3.09	4.27	6561	6581
31	CG42369	DRSC03244	3.19	4.77	6417	6039
32	Catsup (Catecholamines up)	DRSC03288	0.62	2.92	649	6507
33	Catsup (Catecholamines up)	DRSC25727	1.11	5.42	6824	6235
34	CG3457	DRSC18509	2.28	1.98	5912	6056
35	CG3457	DRSC26458	2.29	2.62	6641	6561
36	CG12035	DRSC08238	9.91	16.4	5297	4845
37	Tsp42Ed (Tetraspanin 42Ed)	DRSC05940	20	11.7	5294	5703
38	CG1231	DRSC08267	3.12	1.21	6094	6102
39	CG1231	DRSC27231	14.4	14.6	4689	6689
40	CG33003	DRSC22419	1.54	1.94	6100	6965
41	CG33003	DRSC26346	8.28	19.4	6049	5659
42	CG15019	DRSC08473	3.26	6.43	6251	5958
43	Ir48c (Ionotropic receptor 48c)	DRSC06154	19.8	26.8	5882	6672
44	CG12289	DRSC09874	0.95	1.21	6101	6355
45	Cyp4p3 (Cytochrome P450 4p3)	DRSC07374	13.1	6.34	5969	6566
46	Cyp4p3 (Cytochrome P450 4p3)	DRSC26733	4.73	39.5	6761	2854
47	fne (found in neurons)	DRSC20332	6.33	25.9	869	2853
48	fne (found in neurons)	DRSC25027	3.1	4.8	6385	6082
49	fne (found in neurons)	DRSC25129	7.49	6.24	5927	6395
50	CG14326	DRSC14805	1.43	4.78	6977	4412
51	CG14326	DRSC28069	3.89	28	6404	4794
52	l(2)37Cb (lethal (2) 37Cb)	DRSC02095	9.45	15.9	4668	5030
53	l(2)37Cb (lethal (2) 37Cb)	DRSC24383	6.17	3.89	4392	4860
54	CG3894	DRSC01762	1.43	2.16	6277	6064
55	CG3894	DRSC04012	0.51	0.12	6297	5923
56	CG3894	DRSC04429	1.39	11.9	6348	1823
57	frac (faulty attraction)	DRSC10867	11.8	7.33	3223	4992
58	frac (faulty attraction)	DRSC29239	7.02	11.8	883	6070
